Entries after “also recorded” stand apart in the source; their conditions may differ.
Assays:
[1] = target: T1, mTRPV1 (Mus musculus, UniProt Q704Y3); test: cell-based
T1 construct: expressed in transfected cells; host or cells: HEK293T

The chains behind the UniProt entries cited, without tags or fusion partners.
UniProt Q704Y3, whole entry: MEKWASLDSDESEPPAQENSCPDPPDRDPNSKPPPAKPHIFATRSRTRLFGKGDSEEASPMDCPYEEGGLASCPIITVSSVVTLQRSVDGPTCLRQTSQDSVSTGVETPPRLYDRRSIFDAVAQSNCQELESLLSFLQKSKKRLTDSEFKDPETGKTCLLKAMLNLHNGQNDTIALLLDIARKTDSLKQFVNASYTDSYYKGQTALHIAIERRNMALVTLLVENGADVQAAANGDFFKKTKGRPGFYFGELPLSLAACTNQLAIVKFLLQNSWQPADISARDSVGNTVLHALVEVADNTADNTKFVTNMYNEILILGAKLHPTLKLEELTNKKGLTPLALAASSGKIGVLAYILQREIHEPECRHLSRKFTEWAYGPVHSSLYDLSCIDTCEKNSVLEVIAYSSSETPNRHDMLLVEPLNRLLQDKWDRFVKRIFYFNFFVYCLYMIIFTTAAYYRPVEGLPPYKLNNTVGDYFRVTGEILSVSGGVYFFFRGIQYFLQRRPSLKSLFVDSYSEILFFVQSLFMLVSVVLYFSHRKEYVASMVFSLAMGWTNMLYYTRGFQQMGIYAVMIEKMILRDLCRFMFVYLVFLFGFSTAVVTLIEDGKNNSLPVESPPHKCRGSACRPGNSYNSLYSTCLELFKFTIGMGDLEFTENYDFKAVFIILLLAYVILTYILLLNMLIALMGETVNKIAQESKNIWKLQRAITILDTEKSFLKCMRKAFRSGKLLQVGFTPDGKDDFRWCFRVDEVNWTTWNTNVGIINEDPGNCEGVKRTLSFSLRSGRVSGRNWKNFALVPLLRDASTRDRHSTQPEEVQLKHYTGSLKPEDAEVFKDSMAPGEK

[2] = test system: native HEK293T cells; format: cell-based; details: negative for TRPV1, 20 °C, endogenous ASICs
[3] = test system: DRG neurons of TRPV1 KO mice; format: cell-based, mouse; details: 300 µM; DRG neurons 20 µm ≤ cell ≤ 35 µm; 20 °C
[4] = test system: DRG neurons of WT mice; format: cell-based, mouse; details: 300 µM; DRG neurons 20 µm ≤ cell ≤ 35 µm; 20 °C

CC(C)[C@@H]1NC(=O)[C@@H]2CSSC[C@@H]3NC(=O)[C@H](CC(=O)O)NC(=O)[C@H](CCC(=O)O)NC(=O)[C@@H](NC(=O)[C@@H](NC(=O)[C@H](C)N)[C@@H](C)O)CSSC[C@H](NC(=O)[C@H](CCCCN)NC(=O)[C@H](C)NC(=O)[C@H](CCCNC(=N)N)NC(=O)[C@H](C)NC(=O)[C@H](CC(N)=O)NC(=O)[C@H](CCC(N)=O)NC(=O)[C@H]([C@@H](C)O)NC(=O)[C@H](C)NC(=O)[C@H](CSSC[C@@H](C(=O)N[C@@H](CCC(=O)O)C(=O)N4CCC[C@H]4C(=O)N[C@@H](CCCCN)C(=O)O)NC1=O)NC(=O)[C@H](Cc1c[nH]cn1)NC(=O)[C@H](CCC(=O)O)NC(=O)[C@@H]1CCCN1C3=O)C(=O)N[C@@H](CC(=O)O)C(=O)N[C@@H](CC(N)=O)C(=O)N[C@@H](CC(=O)O)C(=O)N[C@@H](CCCCN)C(=O)N2 [BmP01]
EC50 [1]: 132 ± 49.1 µM
evoked currents in native HEK293T cells, ramp method [2]: not on HEK293T cells without TRPV1; also recorded: did not evoke the currents
evoked currents on DRG neurons (TRPV1 KO) [3]: had no effect on DRG neurons of TRPV1 KO mice; also recorded: not TRPV1 KO mice; also recorded: did not evoke currents
evoked currents on DRG neurons (WT) [4]: evoked currents in WT dorsal root ganglion (DRG) neurons; also recorded: effectively evoked the currents in DRG neurons of WT; also recorded: evoked the currents on DRG sensory neurons of WT mice

— article PMC4591660 (Toxins, 2015)
